## In-gel DMS probing of monomeric and dimeric HIV-1 RNA

Source: Ye et al. 2022 (doi:10.1038/s41594-022-00746-2), supplementary data.

Sequence of the HIV-1 NL4-3 5' RNA, positions 1 to 437, as numbered in the source:
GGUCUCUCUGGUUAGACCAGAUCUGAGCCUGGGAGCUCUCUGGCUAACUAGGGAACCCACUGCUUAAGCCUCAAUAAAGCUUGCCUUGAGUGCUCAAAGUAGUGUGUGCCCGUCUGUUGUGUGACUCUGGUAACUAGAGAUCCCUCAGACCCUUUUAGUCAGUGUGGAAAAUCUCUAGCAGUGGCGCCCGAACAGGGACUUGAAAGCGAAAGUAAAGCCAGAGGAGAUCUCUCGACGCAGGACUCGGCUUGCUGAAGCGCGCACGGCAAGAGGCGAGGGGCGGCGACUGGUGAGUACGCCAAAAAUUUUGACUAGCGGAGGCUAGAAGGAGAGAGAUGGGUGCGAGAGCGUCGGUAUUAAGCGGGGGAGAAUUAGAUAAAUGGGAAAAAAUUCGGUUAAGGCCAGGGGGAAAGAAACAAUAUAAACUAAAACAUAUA

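Randomly mutated transcripts starting with one, two or three G (1G, 2G, 3G), capped or uncapped, were folded for 30 min at 37 °C. High salt was 300 mM KCl and 5 mM MgCl2, low salt 40 mM KCl and 0.1 mM MgCl2; monomer and dimer were parted on a native gel. Gel slices were treated with 170 mM dimethyl sulfate for 15 min at 37 °C and read by mutational profiling against an ethanol control.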

Scale: normalised reactivity, A and C only; low values point to paired or protected bases, higher values to unpaired ones. One numbering serves 1G, 2G and 3G. A position is written with its base.

| position | domain | 3G capped high-salt monomer | 3G capped low-salt dimer | 1G uncapped high-salt dimer | 2G capped low-salt dimer |
|---|---|---|---|---|---|
| A326 | none | 0.92 | 0.87 | 0.92 | 0.90 |
| A327 | none | 1.01 | 1.04 | 1.11 | 1.03 |
| A330 | none | 0.96 | 0.79 | 0.81 | 0.82 |
| A332 | none | 0.64 | 0.49 | 0.50 | 0.49 |
| A334 | AUG | 0.50 | 0.34 | 0.44 | 0.39 |
| A336 | AUG | 0.63 | 0.56 | 0.95 | 0.75 |
| C343 | AUG | 0.70 | 0.30 | 0.31 | 0.32 |
| A345 | none | 1.27 | 1.20 | 1.35 | 1.24 |
| A347 | none | 0.21 | 0.17 | 0.29 | 0.27 |
| C349 | none | 0.28 | 0.23 | 0.32 | 0.33 |
| C352 | none | 0.37 | 0.39 | 0.42 | 0.41 |
| A356 | none | 0.84 | 0.99 | 1.00 | 0.95 |
| A359 | none | 0.55 | 0.47 | 0.58 | 0.57 |
| A360 | none | 0.54 | 0.48 | 0.62 | 0.60 |
| C362 | none | 0.53 | 0.36 | 0.33 | 0.39 |
| A368 | none | 0.96 | 0.85 | 0.77 | 0.77 |
| A370 | none | 0.56 | 0.51 | 0.50 | 0.50 |
| A371 | none | 0.97 | 0.94 | 0.94 | 0.91 |
| A374 | none | 0.48 | 0.46 | 0.51 | 0.49 |
| A376 | none | 0.76 | 0.71 | 0.76 | 0.74 |
| A378 | none | 0.24 | 0.21 | 0.22 | 0.21 |
| A379 | none | 0.60 | 0.57 | 0.61 | 0.57 |
| A380 | none | 0.85 | 0.79 | 0.82 | 0.79 |
| A385 | none | 0.55 | 0.51 | 0.53 | 0.52 |
| A386 | none | 1.39 | 1.28 | 1.29 | 1.25 |
| A387 | none | 0.24 | 0.22 | 0.24 | 0.22 |
| A388 | none | 0.08 | 0.08 | 0.10 | 0.09 |
| A389 | none | 0.15 | 0.15 | 0.21 | 0.18 |
| A390 | none | 0.97 | 0.90 | 0.88 | 0.88 |
| C393 | none | 0.62 | 0.60 | 0.62 | 0.62 |
| A398 | none | 0.14 | 0.16 | 0.28 | 0.21 |
| A399 | none | 0.16 | 0.23 | 0.40 | 0.27 |
| C402 | none | 0.02 | 0.04 | 0.05 | 0.04 |
| C403 | none | 0.02 | 0.04 | 0.04 | 0.03 |
| A404 | none | 0.18 | 0.29 | 0.24 | 0.27 |
| A410 | none | 0.48 | 0.43 | 0.37 | 0.42 |